Results deposited as PubChem BioAssay AID624099 (ICCB-Longwood, 2012).
The whole screen tested about 21,000 reagents; below is a random part of them. 497 of all reagents (2.4%) count as active. 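Higher z means weaker E2 silencing; only reporter increases were scored, and knock-downs that hurt cell survival may mask genuine repressor factors.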 A number with no mark means an inactive call. Reagent sequences are not shown.

Purpose: 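Knock-downs relieving repression by E2 of an HPV18 LCR luciferase reporter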 (primary screen)
Cells: human C33A cervical carcinoma cells (HPV-negative) stably expressing BPV1 E2 and an HPV18 LCR luciferase reporter
Reagents: siRNA pool against human genes, 40 nM
Timing: 72 h
Measurement: 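HPV18 LCR reporter light per well, converted to plate-wise z-scores that exclude control wells, and averaged over triplicate plates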
Direction: mean z-score and z-score: higher = stronger reporter signal, weaker E2 silencing
Rule for the call: 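Mean z ≥ 2 together with z ≥ 2 in two or more of the three replicates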

The opening 2 records, to show the layout:
ARAP2-AS1 [SID134320598]
- mean z-score: 0.37
- z-score, replicate A: 0.36
- z-score, replicate B: 0.61
- z-score, replicate C: 0.14

DNAJC14 [SID134320768]
- mean z-score: 0.2
- z-score, replicate A: 0.2
- z-score, replicate B: 0.4
- z-score, replicate C: 0.02

Main list, from the start:
ARAP2-AS1 [SID134320598]
- mean z-score: 0.37
- z-score, replicate A: 0.36
- z-score, replicate B: 0.61
- z-score, replicate C: 0.14

DNAJC14 [SID134320768]
- mean z-score: 0.2
- z-score, replicate A: 0.2
- z-score, replicate B: 0.4
- z-score, replicate C: 0.02

NDUFB3 [SID134323382]
- mean z-score: -0.98
- z-score, replicate A: -1.14
- z-score, replicate B: -0.79
- z-score, replicate C: -1.02

DDX49 [SID134321874]
- mean z-score: -1.51
- z-score, replicate A: -1.67
- z-score, replicate B: -1.6
- z-score, replicate C: -1.25

CHRND [SID134311565]
- mean z-score: -0.3
- z-score, replicate A: -0.24
- z-score, replicate B: -0.41
- z-score, replicate C: -0.26

GART [SID134313461]
- mean z-score: 0.01
- z-score, replicate A: 0.69
- z-score, replicate B: -0.14
- z-score, replicate C: -0.52

FOXL2 [SID134313911]
- mean z-score: -0.73
- z-score, replicate A: -0.45
- z-score, replicate B: -1.07
- z-score, replicate C: -0.67

RSPO1 [SID134322058]
- mean z-score: -0.16
- z-score, replicate A: -0.31
- z-score, replicate B: 0.09
- z-score, replicate C: -0.25

OVAAL [SID134327027]
- mean z-score: 0.19
- z-score, replicate A: -0.07
- z-score, replicate B: 0.18
- z-score, replicate C: 0.47

FLJ40288 [SID134321958]
- mean z-score: 0.81
- z-score, replicate A: 0.82
- z-score, replicate B: 0.8
- z-score, replicate C: 0.79

LOC389772 (retired record) [SID134326783]
- mean z-score: -3.7
- z-score, replicate A: -3.15
- z-score, replicate B: -4.25
- z-score, replicate C: -3.69

DAAM2 [SID134318199]
- mean z-score: 1.4
- z-score, replicate A: 0.46
- z-score, replicate B: 1.86
- z-score, replicate C: 1.89

MTMR3 [SID134312971]
- mean z-score: 0.66
- z-score, replicate A: 0.75
- z-score, replicate B: 0.72
- z-score, replicate C: 0.5

MTMR3 [SID134329101]
- mean z-score: -0.14
- z-score, replicate A: 0
- z-score, replicate B: -0.32
- z-score, replicate C: -0.1

LOC390367 (retired record) [SID134328398]
- mean z-score: 0.21
- z-score, replicate A: 0.39
- z-score, replicate B: 0.25
- z-score, replicate C: 0

ZNF433 [SID134321006]
- mean z-score: 0.57
- z-score, replicate A: 0.65
- z-score, replicate B: 0.33
- z-score, replicate C: 0.74

CHAD [SID134315592]
- mean z-score: 0.01
- z-score, replicate A: -0.21
- z-score, replicate B: 0.06
- z-score, replicate C: 0.18

DERL2 [SID134315075]
- mean z-score: -0.26
- z-score, replicate A: -0.31
- z-score, replicate B: -0.13
- z-score, replicate C: -0.34

FAM124A [SID134322585]
- mean z-score: 0.77
- z-score, replicate A: 0.7
- z-score, replicate B: 0.93
- z-score, replicate C: 0.68

KAT8 [SID134318900]
- mean z-score: -1.21
- z-score, replicate A: -1.4
- z-score, replicate B: -1.1
- z-score, replicate C: -1.11

WAPL [SID134326501]
- mean z-score: -0.21
- z-score, replicate A: -0.21
- z-score, replicate B: -0.25
- z-score, replicate C: -0.17
